A mixed list of measured activities; the numbers were collected in NIAID ChemDB.

Common to all: whole-cell or culture tests; organism: Mycobacterium tuberculosis

Rows are shuffled and stem from different studies. Two numbers with a dash give a range or band. An empty or dashed field is not shown. MIC bound comes from a single tested concentration. A number after MIC or MFC names an inhibition level or a share of isolates. ECn is the concentration giving n% inhibition of infection, replication or growth. Inhibition is in % at the dose shown (toxicity tests: loss of growth or viability).

smiles,setting,changes,endpoint,dose,strain,read by,result
NC(=S)/C(N)=N/Nc1ccc(Cl)cc1,-,-,MIC,-,H37Rv,BACTEC,12.5 µg/mL
CCOC(=O)Nc1cc(NC/C(=N/O)c2ccccc2)c([N+](=O)[O-])c(N)n1,-,-,EC50,-,H37Rv,-,>12.5 µg/mL
Cc1ccc2c(c1)C(=O)C=CC2=O,-,-,MIC90,-,H37Rv,resazurin,3.13 µg/mL
CCOC(=O)Nc1cc2c(nc(-c3ccccc3)c3nncn32)c(NC(c2ccccc2)c2ccccc2)n1,-,-,inhibition,12.5 µg/mL,H37Rv,-,0%
Cc1cccc(C(=O)NCc2ccccn2)c1O,21 d,-,MIC,-,H37Rv,-,62.5 µM
Cc1ccc(Cc2nn(C)c(=O)n2-n2cccc2)cc1,-,-,inhibition,12.5 µg/mL,H37Rv,BACTEC,0%
CC(C)(C)OC(=O)N1CCc2c(sc(N)c2C(=O)O)C1,-,-,MIC,-,H37Rv,resazurin,>300 µM
CCOC(=O)Nc1cc(N(C)C)c([N+](=O)[O-])c(N)n1,-,-,inhibition,12.5 µg/mL,H37Rv,-,0%
CCOC(=O)c1c(NC(C)=O)sc2c1CCCC2,-,-,MIC,-,H37Rv,resazurin,>300 µM
CCOC(=O)Nc1cc(N)c([N+](=O)[O-])c(NCC(O)CN(C)c2ccccc2)n1,-,-,EC50,-,H37Rv,-,>12.5 µg/mL
CC(C)CCCC(C)C1CCC2C3CCC4CC(NC(=O)CNCCCSC(C)C)CCC4(C)C3CCC12C,-,-,MIC bound,-,H37Rv,resazurin,<6.25 µg/mL
O=C1C=CC(=O)c2c(O)ccc(O)c21,-,-,MIC90,-,H37Rv,resazurin,3.13 µg/mL
CCN(CCCNc1cc2c(c(N)c1S(=O)(=O)O)C(=O)c1ccccc1C2=O)c1ccccc1,-,-,inhibition,12.5 µg/mL,H37Rv,BACTEC,7%
Nc1sc(-c2ccccc2)cc1C(=O)O,-,-,MIC,-,H37Rv,resazurin,228 µM
CCn1cc(C(=O)O)c(=O)c2cc(F)c(N3CCNCC3)cc21,-,-,MIC,-,H37RV (RIF-R),-,31.2 µg/mL
CC(=O)OCC1=C(C(=O)O)N2C(=O)[C@@H](NC(=O)CSc3ccncc3)[C@H]2SC1,-,-,inhibition,100 µg/mL,8 strains,BACTEC,100%
CC1CC(c2ccc3ccccc3c2)NCCNC(c2ccc3ccccc3c2)CC(C)NCCN1,-,-,MIC bound,-,H37Rv,resazurin,<6.25 µg/mL
O=C(NCc1cccnc1)c1ccc(Cl)cc1O,14 d,-,MIC,-,H37Rv,-,125 µM
O=C(Nc1ccc(F)cc1)c1ccccc1O,-,-,MIC,-,CNCTC MY 331/8,-,62.5 µM
CC1COc2c(N3CCN(C)CC3)c(F)cc3c(=O)c(C(=O)O)cn1c23,-,-,MIC,-,H37Rv,-,1 µg/mL
CO[C@H]1/C=C/O[C@@]2(C)Oc3c(C)c(O)c4c(O)c(c(/C=N/N5CCN(C)CC5)c(O)c4c3C2=O)NC(=O)/C(C)=C\C=C\[C@H](C)[C@H](O)[C@@H](C)[C@@H](O)[C@@H](C)[C@H](OC(C)=O)[C@@H]1C,-,-,MIC,-,29197,-,≥2 µg/mL
COc1cccc(C(=O)NCc2ccccn2)c1O,21 d,-,MIC,-,H37Rv,-,250 µM
COC(=O)/C=C/C(=O)N1CC(C)N(C(=O)/C=C/C(=O)OC)CC1C,-,-,MIC bound,-,H37Rv,BACTEC,>12.5 µg/mL
COc1cccc(NC(=O)OCCC[NH+]2CCCCC2)c1,-,-,MIC,-,My 331/88,-,250 µM
Oc1cc(O)c2c(c1)OC(c1ccc(O)c(O)c1)C(O)C2O,-,-,MIC bound,-,H37Rv,resazurin,>6.25 µg/mL
CCOC(=O)c1c(NC(C)=O)sc2c1CCN(C(=O)OC(C)(C)C)C2,-,-,MIC,-,H37Rv,resazurin,>200 µM
Cc1cc(-c2cc3c(cc2F)c(=O)c(C(=O)O)cn3C2CC2)cc(C)n1,-,-,MIC,-,126-4,-,1 µg/mL
O=C(Nc1cccc(F)c1)c1ncccc1S,-,-,MIC,-,CNCTC MY 331/8,-,32 µM
CCOC(=O)c1c(N)sc2c1CCN(C(=O)OCc1ccccc1)C2,-,-,MIC,-,H37Rv,resazurin,>200 µM
CO/N=C(/C(=O)N[C@@H]1C(=O)N2C(C(=O)[O-])=C(C[n+]3cccc4c3CCC4)CS[C@H]12)c1csc(N)n1,-,-,inhibition,100 µg/mL,8 strains,BACTEC,100%
O=C(NCc1ccc(F)cc1)c1ncccc1S,-,-,MIC,-,CNCTC MY 331/8,-,8 µM
CCOC(=O)Nc1cc(Nc2ccc(Cl)cc2)c2ncc(-c3ccc(Cl)cc3)nc2n1,-,-,EC50,-,H37Rv,-,>12.5 µg/mL
NNC(=O)c1ccncc1,-,-,MIC,-,H37RV (INH-R),-,30 µg/mL
CCOC(=O)c1c(NC(=O)c2c(F)c(F)c(F)c(F)c2F)sc2c1CCN(CC)C2,-,Rifampicin-resistant S522L,MIC,-,H37Rv,resazurin,0.3 µM
CC(=O)c1c(C2=CC(=O)c3ccccc3C2=O)[nH]c2ccccc12,-,-,MIC90,-,H37Rv,resazurin,>6.25 µg/mL
Nc1nc2c(c(=O)[nH]1)CN(CCCN1CCN(CCCN3CNc4nc(N)[nH]c(=O)c4C3)CC1)CN2,-,-,inhibition,12.5 µg/mL,H37Rv,BACTEC,2%
COc1ccc(C(=O)NCc2cccnc2)c(O)c1,14 d,-,MIC,-,H37Rv,-,500 µM
O=C(Nc1ccc([N+](=O)[O-])cc1)c1ccccc1O,-,-,MIC,-,CNCTC MY 331/8,-,16 µM
O=C(O)c1cn(C2CC2)c2cc(N3CCNCC3)c(F)cc2c1=O,-,-,MIC50,-,30 isolates/HIV+,-,>16 µg/mL
Nc1cc(N)c2[nH]c(=O)c3ccccc3c2c1,-,-,MIC bound,-,H37Rv,BACTEC,>12.5 µg/mL
O=C(NCc1ccccn1)c1ccc(Cl)cc1O,21 d,-,MIC,-,H37Rv,-,250 µM
CCOC(=O)c1cc(CNc2cc(C(F)(F)F)nc3c(C(F)(F)F)cccc23)on1,-,-,MIC,-,H37Rv,low oxygen,>128 µM
CCCCCCCCOc1ccccc1NC(=O)OCCC[NH+]1CCCCC1,-,-,MIC,-,My 331/88,-,8 µM
CC(=O)N1c2ccccc2Sc2ccccc21,-,-,inhibition,12.5 µg/mL,H37Rv,BACTEC,10%
O=Cc1ccc(C2=CC(=O)c3ccccc3C2=O)o1,-,-,MIC90,-,H37Rv,resazurin,>6.25 µg/mL
CCn1cc(C(=O)O)c(=O)c2ccc(C)nc21,-,gyrA mutation A90V,MIC90,-,H37Rv,-,>50 µM
CO/N=C(\C(=O)N[C@@H]1C(=O)N2C(C(=O)O)=C(COC(C)=O)CS[C@H]12)c1csc(N)n1,-,-,inhibition,100 µg/mL,12 strains,BACTEC,75%
O=C(NCc1ccc(Cl)c(Cl)c1)c1ncccc1O,-,-,MIC,-,CNCTC MY 331/8,-,62.5 µM
CCCOc1ccc(NC(=O)OCCC[NH+]2CCCCC2)cc1,-,-,MIC,-,My 331/88,-,250 µM
CO[C@H]1/C=C/O[C@@]2(C)Oc3c(C)c(O)c4c(O)c(c5c(c4c3C2=O)NC2(CCN(CC(C)C)CC2)N=5)=NC(=O)/C(C)=C\C=C\[C@H](C)[C@H](O)[C@@H](C)[C@@H](O)[C@@H](C)[C@H](OC(C)=O)[C@@H]1C,-,-,MIC,-,H37RV (RIF-R),-,250 µg/mL
CC(C)=NNC(=O)CNc1ccc(Cl)c(C(F)(F)F)c1,-,-,MIC,-,H37Rv,BACTEC,≥12.5 µg/mL
CC[C@H]1OC(=O)[C@H](C)[C@@H](O[C@H]2C[C@@](C)(OC)[C@@H](OC(C)=O)[C@H](C)O2)[C@H](C)[C@@H](O[C@@H]2O[C@H](C)C[C@H](N(C)C)[C@H]2O)C(C)(O)C[C@@H](C)/C(=N\OCCCC2CCCCC2)[C@H](C)[C@@H](O)[C@]1(C)O,-,-,MIC,-,6,-,1.56 µg/mL
CCOC(=O)c1cc(-c2ccc(CO)cc2)on1,-,-,MIC,-,H37Rv,resazurin,2.1 µM
Nc1nc(N)nc(-c2ccc([N+](=O)[O-])o2)n1,-,-,MIC,-,CS-R,-,6.3 µg/mL
CC[C@H]1OC(=O)[C@H](C)[C@@H](O[C@H]2C[C@@](C)(OC)[C@@H](O)[C@H](C)O2)[C@H](C)[C@@H](O[C@@H]2O[C@H](C)C[C@H](N(C)C)[C@H]2O)[C@](C)(OC)C[C@@H](C)C(=O)[C@H](C)[C@@H](O)[C@]1(C)O,-,-,MIC90,-,30 isolates/HIV+,-,4 µg/mL
CN1N=C(c2ccncc2)OC1c1cccc(F)c1,-,-,MIC,-,16PI,-,>20 µg/mL
COc1ccccc1NC(=O)OCCC[NH+]1CCCCC1,-,-,MIC,-,My 331/88,-,250 µM
CCOC(=O)c1cc(CNc2ccccc2CC)on1,-,-,MIC,-,H37Rv,resazurin,13.7 µM
Nc1nc(N)nc(-c2ccccc2-n2nnc3ccccc3c2=O)n1,-,-,MIC bound,-,H37Rv,BACTEC,>12.5 µg/mL
NCC[C@H](O)C(=O)N[C@@H]1C[C@H](N)[C@@H](O[C@H]2O[C@H](CN)[C@@H](O)[C@H](O)[C@H]2O)[C@H](O)[C@H]1O[C@H]1O[C@H](CO)[C@@H](O)[C@H](N)[C@H]1O,-,-,MIC,-,MDR5,broth dilution / resazurin,1 µg/mL
CC1C(c2ccccc2)=Nn2c(=O)n(-c3ccccc3)c(=O)n21,-,-,inhibition,12.8 µg/mL,H37Rv,BACTEC,26%
CCOC(=O)c1cc(CNc2ccc(F)cc2F)on1,-,-,MIC,-,H37Rv,low oxygen,25.3 µM
O=C1C(=O)c2cccnc2C(O)=C1CCCCc1ccccc1,-,-,inhibition,6.25 µg/mL,H37Rv,resazurin,24%
CCOC(=O)Nc1cc(N)c2c(c1)N[C@@H](C)C(c1ccccc1)=N2,-,-,EC50,-,H37Rv,-,>12.5 µg/mL
OC(CCN1CCCCC1)(c1cccs1)C(O)(CCN1CCCCC1)c1cccs1,-,-,inhibition,6.25 µg/mL,H37Rv,-,0%
CCOC(=O)c1cn(CC)c2c(cc([N+](=O)[O-])c3cccnc32)c1=O,-,gyrA mutation D94G,MIC90,-,BCG,-,2.5 µM
C/C(=N/NC(=S)N1CCC(C)CC1)c1nccnc1C,-,-,MIC,-,CS-R,-,0.4 µg/mL
CC(=O)c1ccc(C2=CC(=O)c3ccccc3C2=O)nc1,-,-,MIC90,-,H37Rv,resazurin,3.13 µg/mL
CC/C(=C(\c1ccccc1)c1ccc(OCCN(C)C)cc1)c1ccccc1,-,-,MIC,-,Pyr-r,resazurin,6.25–12.5 µg/mL
Cc1c(N)nc([C@H](CC(N)=O)NC[C@@H](N)C(N)=O)nc1C(=O)N[C@H](C(=O)NC(C)C(O)CC(=O)NC(C(=O)NC(OC1OC(C)C(N)C(O)C1O)C(O)c1nc(-c2nc(C(=O)NCCCCN)cs2)cs1)[C@H](C)O)C(OC1OC(CO)C(O)C(O)C1OC1OC(CO)C(O)C(OC(N)=O)C1O)c1cnc[nH]1.Cl.Cl.Cl.Cl,-,-,MIC,-,PAS-R,-,0.1 µg/mL
CN1N=C(c2ccncc2)OC1c1ccc(C(F)(F)F)cc1,-,-,MIC,-,16PI,-,>20 µg/mL
CCCCOc1cccc(NC(=O)OCCC[NH+]2CCCCC2)c1,-,-,MIC,-,My 331/88,-,62.5 µM
CN(C)CCCN1c2ccccc2Sc2ccc(Cl)cc21,-,-,MIC,-,Isolate A drug-susceptible,-,10 µg/mL
Oc1ccc([C@H]2Oc3c(c(O)cc4c3[C@H]3c5c(O)cc(O)cc5C[C@@](c5ccc(O)cc5)(O4)[C@H]3O)CC2O)cc1,-,-,MIC bound,-,H37Rv,BACTEC,>12.5 µg/mL
NNC(=O)c1ccncc1,-,-,MIC,-,MC8,-,<0.2 µg/mL
CCCNCCC(=O)Nc1ccc(C)c(Cl)c1,-,-,MIC bound,-,H37Rv,BACTEC,>12.5 µg/mL
CN1N=C(c2ccncc2)OC1c1ccc(F)cc1,-,-,MIC,-,6 PI,-,>20 µg/mL
CCOC(=O)c1cc(CN(C)c2ccc(C(F)(F)F)cc2)on1,-,-,MIC,-,H37Rv,low oxygen,6.4 µM
COc1ccc(C2OC(c3ccncc3)=NN2C)c(OC)c1,-,-,MIC,-,H37Rv,-,>20 µg/mL
CCCCOc1ccc(NC(=O)OCCC[NH+]2CCCCC2)cc1,-,-,MIC,-,My 331/88,-,62.5 µM
CO/N=C(\C(=O)N[C@@H]1C(=O)N2C(C(=O)O)=C(CSc3nnnn3CCNS(=O)(=O)O)CS[C@H]12)c1csc(N)n1,-,-,inhibition,100 µg/mL,8 strains,BACTEC,0%
CN1N=C(c2ccncc2)OC1c1cccc(C(F)(F)F)c1,-,-,MIC,-,16PI,-,5 µg/mL
CO[C@H]1/C=C/O[C@@]2(C)Oc3c(C)c(O)c4c(O)c(c(/C=N/N5CCN(C)CC5)c(O)c4c3C2=O)NC(=O)/C(C)=C\C=C\[C@H](C)[C@H](O)[C@@H](C)[C@@H](O)[C@@H](C)[C@H](OC(C)=O)[C@@H]1C,-,Rifampicin-resistant S522L,MIC,-,H37Rv,resazurin,3.5 µM

Repeating the first 5 entries:

smiles,setting,changes,endpoint,dose,strain,read by,result
NC(=S)/C(N)=N/Nc1ccc(Cl)cc1,-,-,MIC,-,H37Rv,BACTEC,12.5 µg/mL
CCOC(=O)Nc1cc(NC/C(=N/O)c2ccccc2)c([N+](=O)[O-])c(N)n1,-,-,EC50,-,H37Rv,-,>12.5 µg/mL
Cc1ccc2c(c1)C(=O)C=CC2=O,-,-,MIC90,-,H37Rv,resazurin,3.13 µg/mL
CCOC(=O)Nc1cc2c(nc(-c3ccccc3)c3nncn32)c(NC(c2ccccc2)c2ccccc2)n1,-,-,inhibition,12.5 µg/mL,H37Rv,-,0%
Cc1cccc(C(=O)NCc2ccccn2)c1O,21 d,-,MIC,-,H37Rv,-,62.5 µM